Results of unrelated studies side by side (data: NIAID ChemDB).

All rows: target-level tests

ICn is the concentration giving n% inhibition.

CC(C)(C#Cc1ccc(NC(=O)CSc2nnnn2-c2ccc(C3CC3)cc2Cl)c(Cl)c1)OCCN1CCC(O)CC1 ; agent: HIV-1 ; strain or isolate: WT ; protein: Reverse transcriptase ; read by: PicoGreen / fluorescence ; read-out: IC50 ; result: <1 µM
CCSC(=O)NCCCC(C)(C)CN(C[C@@H](O)[C@H](Cc1ccccc1)NC(=O)O[C@H]1CO[C@H]2OCC[C@H]21)S(=O)(=O)c1ccc2c(c1)OCO2 ; agent: HIV-1 ; protein: Protease ; read by: fluorescence ; read-out: Ki ; result: <0.001 µM
CN(C)CC(=O)NC(C)(C)C#Cc1ccc(NC(=O)CSc2nnnn2-c2cc(C(F)(F)F)ccc2Cl)c(Cl)c1 ; agent: HIV-1 ; strain or isolate: WT ; protein: Reverse transcriptase ; read by: PicoGreen / fluorescence ; read-out: IC50 ; result: <1 µM
Nc1ccn([C@@H]2CS[C@H](COP(=O)(O)OP(=O)(O)OP(=O)(O)O)O2)c(=O)n1 ; agent: HIV ; changes: RT-D67N K70R T215Y K219Q ; protein: Reverse transcriptase ; read by: radiometric ; read-out: fold resistance ; result: 1.5
COC(=O)Cc1ccc(-c2ccc(NC(=O)CSc3nnnn3-c3ccc(C)cc3Cl)c(Cl)c2)cc1 ; agent: HIV-1 ; changes: RT-K103 Y181C ; protein: Reverse transcriptase ; read by: PicoGreen / fluorescence ; read-out: IC50 ; result: <1 µM
CC(C)(CCC#N)CN(C[C@@H](O)[C@H](Cc1ccccc1)NC(=O)O[C@@H]1CO[C@@H]2OCC[C@@H]21)S(=O)(=O)c1cccc(N)c1 ; agent: HIV-1 ; protein: Protease ; read by: fluorescence ; read-out: Ki ; result: <0.001 µM
CC(C)(C)c1ccc(-n2nnnc2SCC(=O)Nc2ccc(C(=O)Nc3ccc(N4CCOCC4)cc3)cc2Cl)c(Cl)c1 ; agent: HIV-1 ; changes: RT-K103 Y181C ; protein: Reverse transcriptase ; read by: PicoGreen / fluorescence ; read-out: IC50 ; result: <1 µM
COc1ccnc2[nH]cc(C(=O)C(=O)N3CCN(C(=O)c4ccccc4)C[C@H]3C)c12 ; agent: HIV-1 ; strain or isolate: LAI ; changes: GP120-V68A ; protein: gp120 ; read by: ELISA ; read-out: fold resistance ; result: 1
O=c1ccn2ccn(CCCc3cccc(Cl)c3Cl)c(=O)c2c1O ; agent: HIV-1 ; protein: Integrase ; read by: ELISA ; read-out: IC50 ; result: 0.01–0.1 µM
CN=C(NC#N)NCCC(C)(C)CN(C[C@@H](O)[C@H](Cc1ccccc1)NC(=O)O[C@H]1CO[C@H]2OCC[C@H]21)S(=O)(=O)c1ccc2c(c1)OCO2 ; agent: HIV-1 ; protein: Protease ; read by: fluorescence ; read-out: Ki ; result: <0.001 µM
Cn1cc2c(c(O)c1=O)C(=O)N(Cc1cccc(C(F)(F)F)c1)CC2 ; agent: HIV-1 ; protein: Integrase ; read by: ELISA ; read-out: IC50 ; result: 0.1–1 µM
CC(C)(CCCCNS(C)(=O)=O)CN(C[C@@H](O)[C@H](Cc1ccccc1)NC(=O)O[C@H]1CO[C@H]2OCC[C@H]21)S(=O)(=O)c1ccc(N)cc1 ; agent: HIV-1 ; protein: Protease ; read by: fluorescence ; read-out: Ki ; result: <0.001 µM
O=C(CSc1nnnn1-c1cc(C(F)(F)F)ccc1Cl)Nc1ccc(-c2ccc(OCCN3CCCCC3)cc2)cc1Cl ; agent: HIV-1 ; changes: RT-K103 Y181C ; protein: Reverse transcriptase ; read by: PicoGreen / fluorescence ; read-out: IC50 ; result: <1 µM
CCCC[C@H](NC(=O)[C@H](C)NC(=O)[C@H](CCC(=O)O)NC[C@H](Cc1ccccc1)NC(=O)[C@H](CC(C)C)NC(=O)[C@@H](NC(=O)[C@@H](N)CCCN=C(N)N)C(C)C)C(N)=O ; agent: HIV ; changes: PR-V82S ; protein: Protease ; read by: HPLC ; read-out: IC50 ; result: >0.075 µM
COCCN(C)C(=O)c1cn2ccn(Cc3cccc(Cl)c3)c(=O)c2c(O)c1=O ; agent: HIV-1 ; protein: Integrase ; read by: ELISA ; read-out: IC50 ; result: 0.01–0.1 µM
CC(C)(C#Cc1ccc(NC(=O)CSc2nnnn2-c2ccc(C(C)(C)C)cc2Cl)c(Cl)c1)OCC(=O)Nc1ccccc1 ; agent: HIV-1 ; changes: RT-K103 Y181C ; protein: Reverse transcriptase ; read by: PicoGreen / fluorescence ; read-out: IC50 ; result: <1 µM
CCCNC(=O)c1cn2ccn(Cc3cccc(Cl)c3)c(=O)c2c(O)c1=O ; agent: HIV-1 ; protein: Integrase ; read by: ELISA ; read-out: IC50 ; result: <0.01 µM
Nc1nc2c(ncn2[C@H]2CC[C@@H](COP(=O)(O)OP(=O)(O)OP(=O)(O)O)O2)c(=O)[nH]1 ; agent: HIV ; changes: RT-W266S ; protein: Reverse transcriptase ; read by: nucleotide incorporation ; read-out: fold resistance ; result: >41.7

2 of the rows above, restated:

| structure | agent | strain or isolate | changes | protein | read by | read-out | result |
|---|---|---|---|---|---|---|---|
| CCSC(=O)NCCCC(C)(C)CN(C[C@@H](O)[C@H](Cc1ccccc1)NC(=O)O[C@H]1CO[C@H]2OCC[C@H]21)S(=O)(=O)c1ccc2c(c1)OCO2 | HIV-1 | - | - | Protease | fluorescence | Ki | <0.001 µM |
| CCCNC(=O)c1cn2ccn(Cc3cccc(Cl)c3)c(=O)c2c(O)c1=O | HIV-1 | - | - | Integrase | ELISA | IC50 | <0.01 µM |

Fold resistance: result on the changed form divided by that on wild type. Rows are shuffled and stem from different studies. a–b is a range or a potency band. An empty or dashed field is not shown.